Several values for one entry are separate records, joined by “and”; a condition that tells them apart may be missing. Equal entries are not always repeated.
Experiments:
Format in all cases: biochemical
[1] = biological target: T1, ACK1 (Homo sapiens, UniProt Q07912); test: HotSpot kinase assay; conditions: 10µM
T1 construct: purchased Reaction Biology Corporation

Sequences of proteins named here, by UniProt entry; tags and fusion partners are left off. A change or cut given only in a name is not applied to a line headed by its entry. Residues count along the entry.
UniProt Q07912: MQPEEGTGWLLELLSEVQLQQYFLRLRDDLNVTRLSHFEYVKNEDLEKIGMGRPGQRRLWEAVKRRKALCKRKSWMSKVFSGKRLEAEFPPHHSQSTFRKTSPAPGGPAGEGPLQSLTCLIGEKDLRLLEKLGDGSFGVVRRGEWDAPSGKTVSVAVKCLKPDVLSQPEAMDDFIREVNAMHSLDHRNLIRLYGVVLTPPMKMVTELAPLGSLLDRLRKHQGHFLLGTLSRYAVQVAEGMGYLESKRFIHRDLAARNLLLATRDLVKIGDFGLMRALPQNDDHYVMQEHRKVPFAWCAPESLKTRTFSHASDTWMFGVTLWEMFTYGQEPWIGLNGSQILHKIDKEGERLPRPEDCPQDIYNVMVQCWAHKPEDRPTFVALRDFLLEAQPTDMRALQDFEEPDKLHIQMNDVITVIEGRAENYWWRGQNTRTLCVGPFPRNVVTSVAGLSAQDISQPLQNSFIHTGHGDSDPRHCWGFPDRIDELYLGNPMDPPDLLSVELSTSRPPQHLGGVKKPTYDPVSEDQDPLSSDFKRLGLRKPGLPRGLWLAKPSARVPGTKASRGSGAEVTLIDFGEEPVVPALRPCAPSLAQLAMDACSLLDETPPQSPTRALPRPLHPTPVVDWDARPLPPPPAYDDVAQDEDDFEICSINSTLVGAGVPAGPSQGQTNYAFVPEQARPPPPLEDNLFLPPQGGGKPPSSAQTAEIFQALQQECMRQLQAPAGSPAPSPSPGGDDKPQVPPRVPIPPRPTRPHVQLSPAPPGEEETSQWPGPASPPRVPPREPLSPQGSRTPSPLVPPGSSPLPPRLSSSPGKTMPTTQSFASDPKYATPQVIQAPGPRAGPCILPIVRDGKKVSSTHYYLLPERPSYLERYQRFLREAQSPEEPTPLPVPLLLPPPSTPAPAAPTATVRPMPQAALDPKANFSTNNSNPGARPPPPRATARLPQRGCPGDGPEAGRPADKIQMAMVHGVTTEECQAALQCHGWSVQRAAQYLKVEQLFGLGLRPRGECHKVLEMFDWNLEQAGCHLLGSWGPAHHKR
UniProt Q99683: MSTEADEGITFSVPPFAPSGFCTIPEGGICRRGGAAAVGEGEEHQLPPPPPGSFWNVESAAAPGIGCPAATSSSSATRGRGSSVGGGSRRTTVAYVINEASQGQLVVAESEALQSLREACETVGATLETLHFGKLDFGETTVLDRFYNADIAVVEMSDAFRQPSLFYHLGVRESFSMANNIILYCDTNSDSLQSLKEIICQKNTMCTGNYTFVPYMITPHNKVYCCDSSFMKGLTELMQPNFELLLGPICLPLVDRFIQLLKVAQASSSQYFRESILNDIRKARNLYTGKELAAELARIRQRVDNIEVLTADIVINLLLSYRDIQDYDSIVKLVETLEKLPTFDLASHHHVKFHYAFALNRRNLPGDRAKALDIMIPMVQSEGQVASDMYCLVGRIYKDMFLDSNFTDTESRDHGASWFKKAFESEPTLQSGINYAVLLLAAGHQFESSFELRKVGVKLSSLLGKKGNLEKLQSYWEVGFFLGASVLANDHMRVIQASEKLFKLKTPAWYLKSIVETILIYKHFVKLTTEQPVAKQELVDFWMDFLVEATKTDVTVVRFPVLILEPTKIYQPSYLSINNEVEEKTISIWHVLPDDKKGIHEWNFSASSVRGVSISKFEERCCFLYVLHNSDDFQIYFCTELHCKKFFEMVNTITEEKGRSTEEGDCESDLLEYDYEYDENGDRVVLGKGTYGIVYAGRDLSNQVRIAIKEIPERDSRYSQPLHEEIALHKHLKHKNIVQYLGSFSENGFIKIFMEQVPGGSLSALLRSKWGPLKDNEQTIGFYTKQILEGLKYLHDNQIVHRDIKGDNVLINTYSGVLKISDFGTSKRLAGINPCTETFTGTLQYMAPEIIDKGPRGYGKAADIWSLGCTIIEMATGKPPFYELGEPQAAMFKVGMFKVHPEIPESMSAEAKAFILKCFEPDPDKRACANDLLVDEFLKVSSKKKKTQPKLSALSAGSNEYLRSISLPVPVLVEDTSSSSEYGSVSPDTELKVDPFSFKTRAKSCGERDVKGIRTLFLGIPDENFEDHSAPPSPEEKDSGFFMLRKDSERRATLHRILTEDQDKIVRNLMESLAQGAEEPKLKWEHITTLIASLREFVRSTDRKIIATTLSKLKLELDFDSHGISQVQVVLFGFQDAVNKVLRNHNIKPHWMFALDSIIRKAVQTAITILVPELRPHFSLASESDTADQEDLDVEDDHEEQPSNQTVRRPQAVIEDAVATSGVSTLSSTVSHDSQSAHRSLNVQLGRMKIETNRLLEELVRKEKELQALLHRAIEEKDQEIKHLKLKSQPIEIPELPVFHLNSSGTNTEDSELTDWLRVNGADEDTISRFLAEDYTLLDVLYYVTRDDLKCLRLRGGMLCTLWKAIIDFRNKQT
UniProt Q14012: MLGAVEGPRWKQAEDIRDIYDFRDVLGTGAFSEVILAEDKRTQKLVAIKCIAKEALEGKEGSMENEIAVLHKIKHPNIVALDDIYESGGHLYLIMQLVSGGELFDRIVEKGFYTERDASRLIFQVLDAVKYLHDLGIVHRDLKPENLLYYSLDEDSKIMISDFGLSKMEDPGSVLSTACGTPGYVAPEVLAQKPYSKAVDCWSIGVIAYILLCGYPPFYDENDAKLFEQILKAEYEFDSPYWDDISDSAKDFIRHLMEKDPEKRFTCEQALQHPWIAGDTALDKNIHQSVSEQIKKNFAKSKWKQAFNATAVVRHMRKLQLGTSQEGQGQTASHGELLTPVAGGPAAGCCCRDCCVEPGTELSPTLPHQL
UniProt P06493, whole entry: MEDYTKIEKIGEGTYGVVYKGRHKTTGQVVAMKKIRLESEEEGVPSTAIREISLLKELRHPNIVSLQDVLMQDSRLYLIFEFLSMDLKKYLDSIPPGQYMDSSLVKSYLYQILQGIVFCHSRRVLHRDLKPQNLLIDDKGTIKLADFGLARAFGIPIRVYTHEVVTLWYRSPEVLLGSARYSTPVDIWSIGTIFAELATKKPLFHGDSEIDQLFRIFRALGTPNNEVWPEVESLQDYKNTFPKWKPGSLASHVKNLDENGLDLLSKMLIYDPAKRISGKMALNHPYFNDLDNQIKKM
UniProt Q9BWU1: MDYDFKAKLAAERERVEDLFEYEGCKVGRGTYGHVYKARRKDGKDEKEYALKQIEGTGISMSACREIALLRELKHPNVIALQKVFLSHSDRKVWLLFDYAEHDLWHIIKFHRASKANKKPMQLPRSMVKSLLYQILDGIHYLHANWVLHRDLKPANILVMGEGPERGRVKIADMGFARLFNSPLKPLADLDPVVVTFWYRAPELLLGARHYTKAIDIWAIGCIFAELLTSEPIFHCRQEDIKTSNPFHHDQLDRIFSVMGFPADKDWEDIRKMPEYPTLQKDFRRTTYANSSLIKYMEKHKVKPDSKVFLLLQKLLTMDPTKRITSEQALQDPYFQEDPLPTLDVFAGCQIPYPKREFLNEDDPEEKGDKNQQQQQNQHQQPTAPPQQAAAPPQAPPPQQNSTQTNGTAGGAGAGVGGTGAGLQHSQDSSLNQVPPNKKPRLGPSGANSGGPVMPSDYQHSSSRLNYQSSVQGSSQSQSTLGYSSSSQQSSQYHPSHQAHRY
UniProt Q8N752: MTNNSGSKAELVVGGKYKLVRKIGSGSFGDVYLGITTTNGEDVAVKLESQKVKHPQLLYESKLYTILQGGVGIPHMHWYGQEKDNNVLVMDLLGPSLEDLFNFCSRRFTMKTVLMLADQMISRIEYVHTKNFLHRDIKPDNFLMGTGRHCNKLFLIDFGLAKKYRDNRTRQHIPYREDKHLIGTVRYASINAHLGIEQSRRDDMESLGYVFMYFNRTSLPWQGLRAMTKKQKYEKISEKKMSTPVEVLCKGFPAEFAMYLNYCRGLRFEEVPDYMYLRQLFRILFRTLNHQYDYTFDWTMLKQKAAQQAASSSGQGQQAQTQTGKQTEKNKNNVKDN
UniProt P07332: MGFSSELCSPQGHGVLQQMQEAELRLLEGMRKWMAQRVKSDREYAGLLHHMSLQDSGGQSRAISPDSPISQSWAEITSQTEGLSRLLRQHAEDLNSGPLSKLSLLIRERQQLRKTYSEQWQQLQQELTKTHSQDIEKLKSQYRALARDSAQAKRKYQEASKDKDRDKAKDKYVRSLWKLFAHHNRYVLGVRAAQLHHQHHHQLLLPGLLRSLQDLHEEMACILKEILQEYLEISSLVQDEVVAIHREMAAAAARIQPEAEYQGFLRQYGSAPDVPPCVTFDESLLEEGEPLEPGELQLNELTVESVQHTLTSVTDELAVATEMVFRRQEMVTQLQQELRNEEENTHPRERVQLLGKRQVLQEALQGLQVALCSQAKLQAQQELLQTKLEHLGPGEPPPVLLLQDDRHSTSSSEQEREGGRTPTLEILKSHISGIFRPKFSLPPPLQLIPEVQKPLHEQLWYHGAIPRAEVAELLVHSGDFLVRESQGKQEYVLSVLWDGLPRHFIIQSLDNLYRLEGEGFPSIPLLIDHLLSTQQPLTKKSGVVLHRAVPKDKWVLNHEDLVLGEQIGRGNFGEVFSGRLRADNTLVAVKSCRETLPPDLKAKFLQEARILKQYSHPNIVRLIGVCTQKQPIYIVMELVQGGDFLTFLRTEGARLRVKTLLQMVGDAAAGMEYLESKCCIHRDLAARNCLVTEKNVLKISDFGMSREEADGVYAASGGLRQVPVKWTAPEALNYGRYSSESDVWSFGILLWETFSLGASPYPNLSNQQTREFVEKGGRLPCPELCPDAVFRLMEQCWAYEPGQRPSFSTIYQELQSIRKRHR
UniProt P17948, 27-1338: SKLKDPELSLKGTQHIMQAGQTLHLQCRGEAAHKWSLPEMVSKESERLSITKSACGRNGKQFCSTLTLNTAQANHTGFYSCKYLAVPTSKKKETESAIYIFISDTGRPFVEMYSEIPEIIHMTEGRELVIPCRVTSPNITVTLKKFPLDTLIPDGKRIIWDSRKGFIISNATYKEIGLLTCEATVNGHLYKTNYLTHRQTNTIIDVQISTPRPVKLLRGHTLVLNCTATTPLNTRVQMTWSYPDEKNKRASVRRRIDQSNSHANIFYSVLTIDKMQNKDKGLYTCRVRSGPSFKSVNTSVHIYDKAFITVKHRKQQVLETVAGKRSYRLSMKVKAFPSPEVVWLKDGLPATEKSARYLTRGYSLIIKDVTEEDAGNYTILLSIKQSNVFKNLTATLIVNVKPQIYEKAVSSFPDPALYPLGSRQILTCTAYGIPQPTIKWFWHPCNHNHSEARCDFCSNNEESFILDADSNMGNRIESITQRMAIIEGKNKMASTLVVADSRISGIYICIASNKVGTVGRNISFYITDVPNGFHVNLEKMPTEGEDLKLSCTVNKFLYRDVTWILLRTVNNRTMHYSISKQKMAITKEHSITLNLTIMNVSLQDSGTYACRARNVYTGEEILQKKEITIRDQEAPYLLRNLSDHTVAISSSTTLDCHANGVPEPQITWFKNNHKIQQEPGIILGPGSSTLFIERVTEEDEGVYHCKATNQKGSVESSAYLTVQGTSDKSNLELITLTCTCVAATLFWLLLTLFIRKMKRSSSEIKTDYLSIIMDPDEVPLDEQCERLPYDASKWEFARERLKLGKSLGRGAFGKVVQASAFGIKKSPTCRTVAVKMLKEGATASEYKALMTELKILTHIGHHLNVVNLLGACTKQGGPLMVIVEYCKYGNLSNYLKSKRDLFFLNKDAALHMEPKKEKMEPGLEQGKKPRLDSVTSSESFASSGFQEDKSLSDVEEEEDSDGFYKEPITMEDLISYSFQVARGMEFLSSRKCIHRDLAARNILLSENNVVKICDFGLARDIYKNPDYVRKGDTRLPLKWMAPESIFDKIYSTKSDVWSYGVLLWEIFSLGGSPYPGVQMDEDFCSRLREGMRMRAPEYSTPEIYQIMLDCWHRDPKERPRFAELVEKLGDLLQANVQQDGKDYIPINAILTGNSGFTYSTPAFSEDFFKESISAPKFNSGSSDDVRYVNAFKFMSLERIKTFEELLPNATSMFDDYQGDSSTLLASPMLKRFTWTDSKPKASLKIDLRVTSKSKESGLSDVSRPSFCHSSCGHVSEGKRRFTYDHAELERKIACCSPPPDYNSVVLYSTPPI
UniProt P42685: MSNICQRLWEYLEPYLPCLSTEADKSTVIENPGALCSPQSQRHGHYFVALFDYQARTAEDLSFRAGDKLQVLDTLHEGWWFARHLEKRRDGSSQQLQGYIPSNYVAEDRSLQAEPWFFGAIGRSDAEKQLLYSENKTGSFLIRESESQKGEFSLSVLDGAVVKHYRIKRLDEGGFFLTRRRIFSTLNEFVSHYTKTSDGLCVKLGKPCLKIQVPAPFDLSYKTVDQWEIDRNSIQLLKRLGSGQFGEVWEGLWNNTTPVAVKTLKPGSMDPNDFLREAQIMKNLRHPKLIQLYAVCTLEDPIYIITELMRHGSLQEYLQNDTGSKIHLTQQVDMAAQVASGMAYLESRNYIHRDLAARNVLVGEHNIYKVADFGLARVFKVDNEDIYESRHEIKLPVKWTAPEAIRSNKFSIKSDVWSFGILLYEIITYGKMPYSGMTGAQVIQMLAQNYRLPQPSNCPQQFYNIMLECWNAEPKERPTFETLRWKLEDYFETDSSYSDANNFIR

[2] = biological target: T2, AKT1 (Homo sapiens, UniProt P31749)
T2 construct: purchased Reaction Biology Corporation

[3] = biological target: T3, ASK1/MAP3K5 (Homo sapiens, UniProt Q99683); test: HotSpot kinase assay; conditions: 10µM
T3 construct: purchased Reaction Biology Corporation

[4] = biological target: T4, Aurora B (Homo sapiens, UniProt Q96GD4); test: HotSpot kinase assay; conditions: 10µM
T4 construct: purchased Reaction Biology Corporation

[5] = biological target: T5, c-Src (Homo sapiens, UniProt P12931); conditions: 10µM
T5 construct: purchased Reaction Biology Corporation

[6] = biological target: T6, CAMK1a (Homo sapiens, UniProt Q14012); test: HotSpot kinase assay; conditions: 10µM
T6 construct: purchased Reaction Biology Corporation

[7] = biological target: T7, CAMK2a (Homo sapiens, UniProt Q9UQM7); test: HotSpot kinase assay; conditions: 10µM
T7 construct: purchased Reaction Biology Corporation

[8] = biological target: T8, CDK1/cyclin B (Homo sapiens, UniProt P06493); test: HotSpot kinase assay; conditions: 10µM
T8 construct: purchased Reaction Biology Corporation

[9] = biological target: T9, CDK19/cyclin C (Homo sapiens, UniProt Q9BWU1); test: HotSpot kinase assay; conditions: 10µM
T9 construct: purchased Reaction Biology Corporation

[10] = biological target: T10, CDK8/cyclin C (Homo sapiens, UniProt P49336); test: HotSpot kinase assay; conditions: 10µM
T10 construct: purchased Reaction Biology Corporation

[11] = biological target: T11, CDK9/cyclin T2 (Homo sapiens, UniProt P50750); test: HotSpot kinase assay; conditions: 10µM
T11 construct: purchased Reaction Biology Corporation

[12] = biological target: T12, CK1a1L (Homo sapiens, UniProt Q8N752); test: HotSpot kinase assay; conditions: 10µM
T12 construct: purchased Reaction Biology Corporation

[13] = biological target: T13, CLK4 (Homo sapiens, UniProt Q9HAZ1); test: HotSpot kinase assay; conditions: 10µM
T13 construct: purchased Reaction Biology Corporation

[14] = biological target: T14, CTK/MATK (Homo sapiens, UniProt P42679); test: HotSpot kinase assay; conditions: 10µM
T14 construct: purchased Reaction Biology Corporation

[15] = biological target: T15, DMPK (Homo sapiens, UniProt Q09013); test: HotSpot kinase assay; conditions: 10µM
T15 construct: purchased Reaction Biology Corporation

[16] = biological target: T16, DMPK2 (Homo sapiens, UniProt Q6DT37); test: HotSpot kinase assay; conditions: 10µM
T16 construct: purchased Reaction Biology Corporation

[17] = biological target: T17, DYRK2 (Homo sapiens, UniProt Q92630); test: HotSpot kinase assay; conditions: 10µM
T17 construct: purchased Reaction Biology Corporation

[18] = biological target: T18, DYRK3 (Homo sapiens, UniProt O43781); test: HotSpot kinase assay; conditions: 10µM
T18 construct: purchased Reaction Biology Corporation

[19] = biological target: T19, DYRK4 (Homo sapiens, UniProt Q9NR20); test: HotSpot kinase assay; conditions: 10µM
T19 construct: purchased Reaction Biology Corporation

[20] = biological target: T20, FES/FPS (Homo sapiens, UniProt P07332); test: HotSpot kinase assay; conditions: 10µM
T20 construct: purchased Reaction Biology Corporation

[21] = biological target: T21, FLT1/VEGFR1 (Homo sapiens, UniProt P17948); test: HotSpot kinase assay; conditions: 10µM
T21 construct: purchased Reaction Biology Corporation

[22] = biological target: T22, FLT3 (Homo sapiens, UniProt P36888); test: HotSpot kinase assay; conditions: 10µM
T22 construct: purchased Reaction Biology Corporation

[23] = biological target: T23, FLT4/VEGFR3 (Homo sapiens, UniProt P35916); test: HotSpot kinase assay; conditions: 10µM
T23 construct: purchased Reaction Biology Corporation

[24] = biological target: T24, FRK/PTK5 (Homo sapiens, UniProt P42685); test: HotSpot kinase assay; conditions: 10µM
T24 construct: purchased Reaction Biology Corporation

[25] = biological target: T25, GRK3 (Homo sapiens, UniProt P35626); test: HotSpot kinase assay; conditions: 10µM
T25 construct: purchased Reaction Biology Corporation

[26] = biological target: T26, GRK5 (Homo sapiens, UniProt P34947); test: HotSpot kinase assay; conditions: 10µM
T26 construct: purchased Reaction Biology Corporation

[27] = biological target: T27, GRK6 (Homo sapiens, UniProt P43250); test: HotSpot kinase assay; conditions: 10µM
T27 construct: purchased Reaction Biology Corporation

[28] = biological target: T28, HGK/MAP4K4 (Homo sapiens, UniProt O95819); test: HotSpot kinase assay; conditions: 10µM
T28 construct: purchased Reaction Biology Corporation

[29] = biological target: T29, HPK1/MAP4K1 (Homo sapiens, UniProt Q92918); test: HotSpot kinase assay; conditions: 10µM
T29 construct: purchased Reaction Biology Corporation

[30] = biological target: T30, IGF1R (Homo sapiens, UniProt P08069); test: HotSpot kinase assay; conditions: 10µM
T30 construct: purchased Reaction Biology Corporation

[31] = biological target: T31, LOK/STK10 (Homo sapiens, UniProt O94804); test: HotSpot kinase assay; conditions: 10µM
T31 construct: purchased Reaction Biology Corporation

[32] = biological target: T32, MEKK1 (Homo sapiens, UniProt Q13233); test: HotSpot kinase assay; conditions: 10µM
T32 construct: purchased Reaction Biology Corporation

[33] = biological target: T33, MEKK2 (Homo sapiens, UniProt Q9Y2U5); test: HotSpot kinase assay; conditions: 10µM
T33 construct: purchased Reaction Biology Corporation

[34] = biological target: T34, MEKK3 (Homo sapiens, UniProt Q99759); test: HotSpot kinase assay; conditions: 10µM
T34 construct: purchased Reaction Biology Corporation

[35] = biological target: T35, MEKK6 (Homo sapiens, UniProt O95382); test: HotSpot kinase assay; conditions: 10µM
T35 construct: purchased Reaction Biology Corporation

## CO[C@@H]1[C@H](N(C)C(=O)CCC(=O)NCc2cn(CCCS(=O)(=O)O)nn2)C[C@H]2O[C@]1(C)n1c3ccccc3c3c4c(c5c6ccccc6n2c5c31)C(=O)NC4 [CIMSS]
[1]
  % Enzyme Activity (relative to DMSO controls): 5.60%
[2]
  fold less effective than staurosporine (IC50): ~ 230 fold
[3]
  % Enzyme Activity (relative to DMSO controls): 6.05%
[4]
  % Enzyme Activity (relative to DMSO controls): 2.83%
[5]
  % Enzyme Activity (relative to DMSO controls): 2.85%
[6]
  % Enzyme Activity (relative to DMSO controls): 28.61%
[7]
  % Enzyme Activity (relative to DMSO controls): 1.34%
[8]
  % Enzyme Activity (relative to DMSO controls): 13.39%
[9]
  % Enzyme Activity (relative to DMSO controls): 37.25%
[10]
  % Enzyme Activity (relative to DMSO controls): 10.03%
[11]
  % Enzyme Activity (relative to DMSO controls): 8.32%
[12]
  % Enzyme Activity (relative to DMSO controls): 78.55%
[13]
  % Enzyme Activity (relative to DMSO controls): 10.10%
[14]
  % Enzyme Activity (relative to DMSO controls): 24.07%
[15]
  % Enzyme Activity (relative to DMSO controls): 73.32%
[16]
  % Enzyme Activity (relative to DMSO controls): 9.78%
[17]
  % Enzyme Activity (relative to DMSO controls): 8.90%
[18]
  % Enzyme Activity (relative to DMSO controls): 27.70%
[19]
  % Enzyme Activity (relative to DMSO controls): 91.31%
[20]
  % Enzyme Activity (relative to DMSO controls): 2.56%
[21]
  % Enzyme Activity (relative to DMSO controls): 2.85%
[22]
  % Enzyme Activity (relative to DMSO controls): 4.52%
[23]
  % Enzyme Activity (relative to DMSO controls): 1.86%
[24]
  % Enzyme Activity (relative to DMSO controls): 4.46%
[25]
  % Enzyme Activity (relative to DMSO controls): 46.87%
[26]
  % Enzyme Activity (relative to DMSO controls): 7.04%
[27]
  % Enzyme Activity (relative to DMSO controls): 8.11%
[28]
  % Enzyme Activity (relative to DMSO controls): 0.44% and -0.12%
[29]
  % Enzyme Activity (relative to DMSO controls): 2.01%
[30]
  % Enzyme Activity (relative to DMSO controls): 6.42%
[31]
  % Enzyme Activity (relative to DMSO controls): 3.02%
[32]
  % Enzyme Activity (relative to DMSO controls): 65.72%
[33]
  % Enzyme Activity (relative to DMSO controls): 8.26%
[34]
  % Enzyme Activity (relative to DMSO controls): 5.56%
[35]
  % Enzyme Activity (relative to DMSO controls): 107.81%
